Results of unrelated studies side by side (data: NIAID ChemDB).

All rows: tests in culture; organism: HIV-1; read by: p24; read-out: EC50

Blank or dashed fields: not listed here.

{"SMILES": "C/C=C(/C)C(=O)OC1c2cc3c(c(OC)c2-c2c(cc4c(c2OC)OCO4)C[C@H](C)[C@]1(C)O)OCO3", "strain": "IIIB", "cells": "H9", "result": ">41 µg/mL"}
{"SMILES": "CC1(C)CC[C@]2(C(=O)O)CC[C@]3(C)C(=CC[C@@H]4[C@@]5(C)CC[C@H](O)C(C)(C)[C@@H]5CC[C@]43C)[C@@H]2C1", "strain": "Primary clinical isolate Rome", "cells": "Macrophage + Monocytes/macrophages", "result": "57.4 µM"}
{"SMILES": "COc1cc([C@@H]2c3cc4c(cc3[C@@H](O)[C@H]3COC(=O)[C@H]23)OCO4)cc(OC)c1O", "strain": "IIIB", "cells": "H9", "result": "0.057 µg/mL"}
{"SMILES": "O=C1c2c(O)c(=O)n(-c3ccc(N4CCOCC4)cc3)c(=O)n2CCN1Cc1ccc(F)cc1", "cells": "MT-4", "result": "<10 µM"}
{"SMILES": "Cc1cn([C@H]2C=C[C@@H](CO)O2)c(=O)[nH]c1=O", "strain": "IIIB", "cells": "PBMC", "result": "0.019 µM"}
{"SMILES": "Cc1cn([C@H]2C[C@@H](n3nnc4ccccc43)[C@H](O)[C@@H](CO)O2)c(=O)[nH]c1=O", "cells": "MT-4", "result": ">100 µM"}
{"SMILES": "O=C(O[C@H]1Cc2c(O)cc3c(c2O[C@H]1c1cc(O)c(O)c(O)c1)[C@H]1c2c(O)cc(O)cc2O[C@@](c2cc(O)c(O)c(O)c2)(O3)[C@@H]1O)c1cc(O)c(O)c(O)c1", "strain": "IIIB", "cells": "H9", "result": ">40 µg/mL"}
{"SMILES": "CN(C)C(=O)C(=O)N1CCOCC1Cn1c(=O)c(O)c2n(c1=O)CCN(Cc1ccc(F)cc1)C2=O", "cells": "MT-4", "result": "<10 µM"}
{"SMILES": "O=c1c(O)cc([C@H]2Oc3cc(O)cc(O)c3C[C@H]2O)cc2c([C@H]3Oc4cc(O)cc(O)c4C[C@H]3O)cc(O)c(O)c12", "strain": "IIIB", "cells": "H9", "result": ">48 µg/mL"}
{"SMILES": "O=c1[nH]cnc2c1ncn2[C@H]1CC[C@@H](CO)O1", "strain": "RF", "cells": "C8166", "result": ">21 µM"}
{"SMILES": "Cc1ccc(NC(=O)NCCSCc2ccc(CNC(C)C)o2)cc1Cl", "cells": "U1", "result": ">100 µM"}
{"SMILES": "CC(C)(C)NC(=O)[C@@H]1CN(Cc2cc3sccc3s2)CCN1C[C@@H](O)C[C@@H](Cc1ccncc1)C(=O)N[C@H]1c2ccccc2C[C@H]1O", "strain": "IIIB", "cells": "H9", "result": "<0.006 µM"}
{"SMILES": "Cc1cn([C@@H]2C[C@H](n3cc([N+](=O)[O-])nc3C)[C@@H](C(O)CO)O2)c(=O)[nH]c1=O", "cells": "MT-4", "result": ">100 µM"}
{"SMILES": "COc1c(O)cc(C(=O)O[C@@H]2Cc3c(O)cc(O)cc3O[C@@H]2c2ccc(O)c(O)c2)cc1O", "strain": "IIIB", "cells": "H9", "result": ">50 µg/mL"}
{"SMILES": "O=c1[nH]cnc2c1ncn2[C@H]1CC[C@@H](CO)O1", "strain": "7932 CLADE B CLADE B", "cells": "PBMC", "result": "0.252 µM"}
{"SMILES": "CC(=O)c1ccc(C)cc1NC(C(N)=O)c1c(Cl)cccc1Cl", "strain": "clinical isolate A012B AZT-sensitive", "cells": "MT-4", "result": "0.0068 µM"}
{"SMILES": "Nc1nc2c(ncn2[C@H]2CC[C@@H](CO)O2)c(=O)[nH]1", "strain": "IIIB", "cells": "H9", "result": "0.49 µM"}
{"SMILES": "CCCN(C)C(=O)Oc1nsnc1-c1c(Cl)ccc(N)c1Cl", "strain": "clinical isolate A018A AZT-sensitive", "cells": "MT-4", "result": "0.0058 µM"}
{"SMILES": "CC(C)(C)OC(=O)C(C)(C)n1c(=O)c(O)c2n(c1=O)CCN(Cc1ccc(F)cc1)C2=O", "cells": "MT-4", "result": "<10 µM"}
{"SMILES": "C#C[C@@]1(CO)C=C[C@H](n2cc(C)c(=O)[nH]c2=O)O1", "strain": "BaL", "cells": "PBMC", "result": "0.0076 µM"}
{"SMILES": "Cc1cn([C@H]2C[C@H](N=[N+]=[N-])[C@@H](CO)O2)c(=O)[nH]c1=O", "strain": "IIIB", "cells": "C8166", "result": "0.016 µM"}
{"SMILES": "C=COC(=O)Oc1c(OC)cc([C@@H]2c3cc4c(cc3[C@@H](O)[C@H]3COC(=O)[C@H]23)OCO4)cc1OC", "strain": "IIIB", "cells": "H9", "result": "0.034 µg/mL"}
{"SMILES": "O=C1c2c(O)c(=O)n(C3CN4CCC3CC4)c(=O)n2CCN1Cc1ccc(F)cc1", "cells": "MT-4", "result": "<10 µM"}
{"SMILES": "Cc1cn([C@H]2C[C@H](N=[N+]=[N-])[C@@H](CO)O2)c(=O)[nH]c1=O", "strain": "RF", "cells": "C8166", "result": "0.06 µM"}
{"SMILES": "Cn1nc(C(F)(F)F)cc1-c1ccc(CN2CCN(C[C@@H](O)C[C@@H](Cc3ccccc3)C(=O)N[C@H]3c4ccccc4C[C@H]3O)[C@H](C(=O)NC(C)(C)C)C2)s1", "strain": "IIIB", "cells": "MT-4", "result": "<0.006 µM"}
{"SMILES": "O=C(O[C@@H]1Cc2c(O)cc(O)cc2O[C@@H]1c1cc(O)c(O)c2c(=O)c(O)cc([C@H]3Oc4cc(O)cc(O)c4C[C@H]3O)cc12)c1cc(O)c(O)c(O)c1", "strain": "IIIB", "cells": "H9", "result": ">48 µg/mL"}
{"SMILES": "O=C(NCc1ccc(F)cc1)c1nc(N2CCCCS2(=O)=O)c2cccnc2c1O", "strain": "BaL", "cells": "PBMC", "result": "<0.022 µM"}
{"SMILES": "Cc1cn([C@H]2C[C@H](N=[N+]=[N-])[C@@H](CO)O2)c(=O)[nH]c1=O", "strain": "IIIB", "cells": "PBMC", "result": "0.0099 µM"}
{"SMILES": "CC(C)(C)NC(=O)[C@@H]1CN(Cc2cc(Br)cs2)CCN1C[C@@H](O)C[C@@H](Cc1cccnc1)C(=O)N[C@H]1c2ccccc2C[C@H]1O", "strain": "IIIB", "cells": "H9", "result": "<0.025 µM"}
{"SMILES": "Cc1ccnc2c1NC(=O)c1cccnc1N2C1CC1", "strain": "IIIB", "setting": "16 d", "cells": "PBMC", "result": "0.981 µM"}
{"SMILES": "CC[C@@H](C)C(=O)O[C@H]1C(=O)O[C@@H]2C[C@H]3C(C)=CC(=O)[C@@H](O)[C@]3(C)[C@H]3[C@@H](O)[C@H](O)[C@@]4(C)OC[C@]32[C@@H]14", "cells": "PBMC", "result": "0.57 µM"}
{"SMILES": "COc1cc([N+](=O)[O-])ccc1N[C@@H]1c2cc3c(cc2[C@@H](c2cc(OC)c(O)c(OC)c2)[C@H]2C(=O)OC[C@@H]21)OCO3", "strain": "IIIB", "cells": "H9", "result": "0.012 µg/mL"}
{"SMILES": "COc1cc(C(=O)O[C@@H]2Cc3c(O)cc(O)cc3O[C@@H]2c2ccc(O)c(O)c2)cc(O)c1O", "strain": "IIIB", "cells": "H9", "result": ">50 µg/mL"}
{"SMILES": "Nc1ncnc2c1ncn2CCOCP(=O)(O)O", "cells": "CEM", "result": "3 µg/mL"}
{"SMILES": "Cc1cn([C@H]2C[C@H](n3cc([N+](=O)[O-])nc3C)[C@@H](C(O)CO)O2)c(=O)[nH]c1=O", "cells": "MT-4", "result": ">100 µM"}
{"SMILES": "COc1cc([C@@H]2c3cc4c(cc3[C@@H](Nc3ccc(-c5nc6ccccc6[nH]5)cc3)[C@H]3COC(=O)[C@H]23)OCO4)cc(OC)c1O", "strain": "IIIB", "cells": "H9", "result": "<0.001 µg/mL"}
{"SMILES": "O=C(O)P(=O)(O)O", "strain": "IIIB", "cells": "MT-4", "result": "9.07 µM"}
{"SMILES": "O=C(O)C(=O)/C=C(\\O)c1cc(/C(O)=C/C(=O)C(=O)O)c2ccccc2n1", "strain": "IIIB", "cells": "H9", "result": "61 µM"}
{"SMILES": "CC(C)(C)NC(=O)[C@@H]1CN(Cc2cc3ccsc3s2)CCN1C[C@@H](O)C[C@@H](Cc1cccnc1)C(=O)N[C@H]1c2ccccc2C[C@H]1O", "strain": "IIIB", "cells": "H9", "result": "<0.006 µM"}
{"SMILES": "CCOC(=O)c1ccc(N[C@@H]2c3cc(OC)c(OC)cc3[C@@H](c3cc(OC)c(O)c(OC)c3)[C@H]3C(=O)OC[C@@H]32)cc1", "strain": "IIIB", "cells": "H9", "result": "<0.001 µg/mL"}
{"SMILES": "O=C1c2c(O)c(=O)n(C3CCCCN(Cc4ccccc4)C3=O)c(=O)n2CCN1Cc1ccc(F)cc1", "cells": "MT-4", "result": "<10 µM"}

For reference, 3 entries again:

SMILES,strain,setting,cells,result
Cc1cn([C@H]2C[C@H](N=[N+]=[N-])[C@@H](CO)O2)c(=O)[nH]c1=O,IIIB,-,PBMC,0.0099 µM
C/C=C(/C)C(=O)OC1c2cc3c(c(OC)c2-c2c(cc4c(c2OC)OCO4)C[C@H](C)[C@]1(C)O)OCO3,IIIB,-,H9,>41 µg/mL
Nc1ncnc2c1ncn2CCOCP(=O)(O)O,-,-,CEM,3 µg/mL

Neighbouring rows are from separate reports. ECn: concentration that inhibits the pathogen or its effect by n%.